Pooled drug test results. Numbers come from NIAID ChemDB, via PubChem.

Common to all: growth or infection tests; agent: Rhinovirus; cell line: HeLa; measure: EC50

ECn: concentration that inhibits the pathogen or its effect by n%. Neighbouring rows are from separate reports.

{"smiles": "CSCCCN1C(=O)c2ccccc2C(CC(=O)c2ccccc2)C1=O", "strain or isolate": "Serotype 14", "method": "plaque count", "result": "27.7 µM"}
{"smiles": "CCCS(=O)(=O)n1c(N)nc2ccc(C(C(=O)NC)c3cccc(F)c3)cc21", "strain or isolate": "1059 (serotype 14)", "method": "plaque count", "result": "0.04 µg/mL"}
{"smiles": "CCOC(=O)/C=C/[C@H](CCC(N)=O)NC(=O)OC(C)(C)C", "strain or isolate": "TYPE 14", "method": "plaque count", "result": ">10 µg/mL"}
{"smiles": "CC(=O)c1ccoc1CCCOc1c(C)cc(-c2noc(C)n2)cc1C", "strain or isolate": "Serotype 14", "method": "cytopathic effect", "result": "1.9 µM"}
{"smiles": "N#Cc1cc([N+](=O)[O-])ccc1Oc1ccc(Cl)c(Cl)c1", "strain or isolate": "TYPE 5", "method": "cytopathic effect", "result": "0.6 µg/mL"}
{"smiles": "COc1ccc(-c2cc(N3CCCC3)no2)c(O)c1", "strain or isolate": "Serotype 29 (group B)", "method": "cytopathic effect", "result": ">384 µM"}
{"smiles": "CON[C@H](C(=O)N[C@@H](CC(C)C)C(=O)N[C@@H](Cc1ccccc1)C(=O)C(=O)/C=C/[C@H](CCC(N)=O)NC(=O)[C@H](N)CCC(=O)O)C(C)C", "strain or isolate": "TYPE 14", "method": "plaque count", "result": ">10 µg/mL"}
{"smiles": "C#CCOc1cc(OC)ccc1-c1cc(N(CC)CC)no1", "strain or isolate": "Serotype 2", "method": "cytopathic effect", "result": "1 µM"}
{"smiles": "Cc1ccc(C(=O)CCCCOc2ccc(C3=NC(C)(C)CO3)cc2)s1", "strain or isolate": "TYPE 2", "method": "cytopathic effect", "result": "10.8 µM"}
{"smiles": "CCN(CC)c1cc(-c2ccc(OC)cc2OC)on1", "strain or isolate": "Serotype 45 (group A)", "method": "cytopathic effect", "result": ">362 µM"}
{"smiles": "CN=C(c1ccccc1)c1ccc2nc(N)n(S(=O)(=O)C(C)C)c2c1", "strain or isolate": "TYPE 2", "method": "cytopathic effect / XTT", "result": "0.07 µg/mL"}
{"smiles": "N#Cc1ccc(Oc2ccc(F)cc2)nc1", "strain or isolate": "TYPE 1A", "method": "cytopathic effect", "result": "34 µM"}
{"smiles": "CC(C)S(=O)(=O)n1c(N)nc2ccc(C(C(N)=O)c3ccc(F)c(F)c3)cc21", "strain or isolate": "1059 (serotype 14)", "method": "plaque count", "result": "0.05 µg/mL"}
{"smiles": "Cc1ccc(C(=O)CCCCOc2ccc(C3=NCC(C)O3)cc2Cl)s1", "strain or isolate": "TYPE 2", "method": "cytopathic effect", "result": "1.48 µM"}
{"smiles": "N#Cc1ccc(Oc2ccc(Cl)c(Cl)c2)c(C#N)c1", "strain or isolate": "TYPE 1A", "method": "cytopathic effect", "result": "173 µM"}
{"smiles": "CON[C@H](C(=O)N[C@@H](CC(C)C)C(=O)N[C@@H](Cc1ccccc1)C(=O)C(=O)/C=C/[C@H](CCC(N)=O)NC(=O)OCc1ccccc1)C(C)C", "strain or isolate": "TYPE 14", "method": "plaque count", "result": "0.93 µg/mL"}
{"smiles": "CNC(=O)C(c1cccc(F)c1)c1ccc2nc(N)n(S(=O)(=O)N(C)C)c2c1", "strain or isolate": "1059 (serotype 14)", "method": "plaque count", "result": "0.03 µg/mL"}
{"smiles": "Cc1ccc(C(=O)CCCCOc2ccc(C3=NCCO3)cc2)cc1C", "strain or isolate": "Serotype 2", "method": "cytopathic effect", "result": ">285 µM"}
{"smiles": "O=c1c(Cc2ccc(O)cc2)coc2ccccc12", "strain or isolate": "TYPE 1B", "method": "plaque count", "result": ">25 µM"}
{"smiles": "CC(C)S(=O)(=O)n1c(N)nc2ccc(C(C(N)=O)c3ccc(F)cc3F)cc21", "strain or isolate": "1059 (serotype 14)", "method": "plaque count", "result": "0.05 µg/mL"}
{"smiles": "COC(=O)/C=C/[C@H](CCC(N)=O)NC(=O)[C@H](Cc1ccccc1)NC(=O)OC(C)(C)C", "strain or isolate": "TYPE 14", "method": "plaque count", "result": ">10 µg/mL"}
{"smiles": "COc1ccc(/C=C2\\COc3cc(OC)cc(OC)c3C2=O)cc1", "strain or isolate": "TYPE 1B", "method": "plaque count", "result": ">6.25 µM"}
{"smiles": "COC(=O)c1cc(CCCOc2c(C)cc(-c3noc(C)n3)cc2C)on1", "strain or isolate": "Serotype 14", "method": "cytopathic effect", "result": "0.044 µg/mL"}
{"smiles": "Cc1cc(CCCCCOc2c(Cl)cc(C3=NCCO3)cc2Cl)on1", "strain or isolate": "TYPE 33", "method": "plaque count", "result": "0.04 µg/mL"}
{"smiles": "CCOC(=O)CCCN1C(=O)Cc2ccccc2C1=O", "strain or isolate": "Serotype 14", "method": "plaque count", "result": "25.1 µM"}
{"smiles": "Cc1ccc(C(=O)CCCCOc2ccc(C3=NC(C)CO3)cc2)s1", "strain or isolate": "TYPE 2", "method": "cytopathic effect", "result": "1.7 µM"}
{"smiles": "CC(C)S(=O)(=O)n1c(N)nc2ccc(C(C(N)=O)c3ccc(F)c(F)c3F)cc21", "strain or isolate": "1059 (serotype 14)", "method": "plaque count", "result": "0.02 µg/mL"}
{"smiles": "O=c1c(Cc2ccc(Cl)cc2)coc2ccccc12", "strain or isolate": "TYPE 1B", "method": "plaque count", "result": "0.2 µM"}
{"smiles": "CC(=O)c1ccc(CCCOc2c(C)cc(-c3noc(C)n3)cc2C)o1", "strain or isolate": "Serotype 14", "method": "cytopathic effect", "result": "0.5 µM"}
{"smiles": "COc1ccc(CC2COc3cc(OC)cc(OC)c3C2=O)cc1", "strain or isolate": "TYPE 14", "method": "plaque count", "result": ">6.25 µM"}
{"smiles": "CC(C)C[C@H](NC(=O)[C@@H](NO)C(C)C)C(=O)N[C@@H](Cc1ccccc1)C(=O)C(=O)/C=C/[C@H](CCC(N)=O)NC(=O)OC(C)(C)C", "strain or isolate": "TYPE 14", "method": "plaque count", "result": ">10 µg/mL"}
{"smiles": "N#Cc1ccc(OCCCCC(=O)c2ccc(F)cc2)cc1", "strain or isolate": "Serotype 2", "method": "cytopathic effect", "result": ">35 µM"}
{"smiles": "O=C1/C(=C/c2ccccc2)COc2ccccc21", "strain or isolate": "TYPE 1B", "method": "plaque count", "result": ">6.25 µM"}
{"smiles": "CS(=O)(=O)c1ccc(Oc2ccc(C(=O)c3ccccc3)cc2)nc1", "strain or isolate": "TYPE 32", "method": "cytopathic effect", "result": "5 µg/mL"}
{"smiles": "COCc1cc(CCCOc2c(Cl)cc(-c3noc(C)n3)cc2Cl)on1", "strain or isolate": "Serotype 67", "method": "cytopathic effect", "result": "0.067 µg/mL"}
{"smiles": "CS(=O)(=O)CCCN1C(=O)c2ccccc2C(CC(=O)c2ccccc2)C1=O", "strain or isolate": "Serotype 14", "method": "plaque count", "result": "22.1 µM"}
{"smiles": "CCOC(=O)c1cc(Cl)c(OCCCCC(=O)c2ccc(OC)cc2)c(Cl)c1", "strain or isolate": "Serotype 14", "method": "cytopathic effect", "result": "5.3 µM"}
{"smiles": "CON[C@H](C(=O)N[C@@H](CC(C)C)C(=O)N[C@@H](Cc1ccccc1)C(=O)C(=O)/C=C/[C@H](CCC(N)=O)NC(=O)OC(C)(C)C)C(C)C", "strain or isolate": "TYPE 14", "method": "plaque count", "result": "0.74 µg/mL"}
{"smiles": "Cc1ccc(C(=O)CCCCOc2ccc(C3=NCC(C)O3)cc2)s1", "strain or isolate": "TYPE 14", "method": "cytopathic effect", "result": "1.9 µM"}
{"smiles": "O=c1c(Cc2ccccc2)coc2ccccc12", "strain or isolate": "TYPE 14", "method": "plaque count", "result": "6.2 µM"}
{"smiles": "CCOc1ccc(-c2cc(N(CC)CC)no2)c(O)c1", "strain or isolate": "Serotype 2", "method": "cytopathic effect", "result": ">362 µM"}
{"smiles": "CCOC(=O)/C=C/[C@H](CCC(N)=O)NC(=O)[C@H](Cc1ccccc1)n1ccc(C)c(NC(=O)OCc2ccccc2)c1=O", "strain or isolate": "14", "method": "XTT", "result": ">0.033 µM"}
{"smiles": "CCCCN1C(=O)c2ccccc2C(C(C)=O)C1=O", "strain or isolate": "Serotype 14", "method": "plaque count", "result": "4.2 µM"}
{"smiles": "CCC1COC(c2ccc(OCCCCC(=O)c3ccc(C)s3)cc2)=N1", "strain or isolate": "TYPE 14", "method": "cytopathic effect", "result": "0.81 µM"}
{"smiles": "CCOC(=O)c1ccc(OCCCCC(=O)c2ccc(SC)cc2)cc1", "strain or isolate": "Serotype 14", "method": "cytopathic effect", "result": "1.7 µM"}
{"smiles": "CON[C@H](C(=O)N[C@@H](CC(C)C)C(=O)N[C@@H](Cc1ccccc1)C(=O)C(=O)/C=C/[C@H](CCS(C)(=O)=O)NC(=O)OC(C)(C)C)C(C)C", "strain or isolate": "TYPE 14", "method": "plaque count", "result": ">10 µg/mL"}
{"smiles": "COc1ccc(OCCCCCCn2ccnc2)c(Cl)c1", "strain or isolate": "TYPE 28", "method": "plaque count", "result": "20.4 µM"}
{"smiles": "CCOC(=O)c1ccc(OCCCCC(=O)c2ccc(C)c(C)c2)cc1", "strain or isolate": "Serotype 2", "method": "cytopathic effect", "result": ">282 µM"}
{"smiles": "CCOc1cc(OC)ccc1-c1cc(N(CC)CC)no1", "strain or isolate": "Serotype 85 (group B)", "method": "cytopathic effect", "result": "17.5 µM"}
{"smiles": "Cc1ccc(C(=O)CCCCCCOc2ccc(C3=NC(C)(C)CO3)cc2)s1", "strain or isolate": "TYPE 14", "method": "cytopathic effect", "result": "0.27 µM"}
{"smiles": "COc1ccc(C(=O)CCCCOc2ccc(C3=NCCO3)cc2)cc1", "strain or isolate": "Serotype 2", "method": "cytopathic effect", "result": ">283 µM"}

7 of the rows above, restated:

smiles,strain or isolate,method,result
COC(=O)c1cc(CCCOc2c(C)cc(-c3noc(C)n3)cc2C)on1,Serotype 14,cytopathic effect,0.044 µg/mL
Cc1ccc(C(=O)CCCCOc2ccc(C3=NC(C)CO3)cc2)s1,TYPE 2,cytopathic effect,1.7 µM
CS(=O)(=O)c1ccc(Oc2ccc(C(=O)c3ccccc3)cc2)nc1,TYPE 32,cytopathic effect,5 µg/mL
Cc1ccc(C(=O)CCCCOc2ccc(C3=NCCO3)cc2)cc1C,Serotype 2,cytopathic effect,>285 µM
O=C1/C(=C/c2ccccc2)COc2ccccc21,TYPE 1B,plaque count,>6.25 µM
CCOC(=O)c1ccc(OCCCCC(=O)c2ccc(C)c(C)c2)cc1,Serotype 2,cytopathic effect,>282 µM
CON[C@H](C(=O)N[C@@H](CC(C)C)C(=O)N[C@@H](Cc1ccccc1)C(=O)C(=O)/C=C/[C@H](CCC(N)=O)NC(=O)OC(C)(C)C)C(C)C,TYPE 14,plaque count,0.74 µg/mL